The values that follow are results of earlier work, collected in US20210270830A1, “BREVETOXIN ASSAY DEVICE, SYSTEM, AND METHOD” (published 2021).

This data set deals with MARBIONC Development Group, LLC polyclonal antibody (anti-BTX pAb). The following applies: statement in text on the approved pAb ELISA kit. In general terms: ELISA stands for enzyme-linked immunosorbent assay.

Consider BTX-6, for which the “Detection by the current approved ELISA kit” value is “not been found to detect”.

BTX-B4: the “Detection by the current approved ELISA kit” value was “not been found to detect”.
